Test system: SK-MEL-1 human melanoma cells
Test: SK-MEL-1 melanoma tumor volume in nude mice
Type: in vivo
Settings: SK-MEL-1 tumor volume; PD325901 15 mg/kg QD 14 days, pegylated Interferon-beta-1a 10 μg QW 3 weeks
Procedure: Athymic nude mice were inoculated with 2×10^6 SK-MEL-1 human melanoma cells (1 injection per flank; 2 injections per mouse) and 100-200 cubic mm tumors were established. Mice (5 per group) were randomized and treated with 0, 1, 5, 10 and 20 mg/kg PD 325901 in PEG400 PO (orally) once per day (QD) for 14 days. Tumors were measured every 3 days using calipers and volume was calculated for a prolate spheroid, defined as: […]
where L equals the major diameter and W equals the minor diameter.
Athymic nude mice were inoculated with 2×10^6 SK-MEL-1 human melanoma cells (1 injection in flank; 1 injection per mouse) and 100-200 cubic mm tumors were established. pegylated IFN β-1a was provided in 20 mM acetic acid/sodium acetate at a pH of 4.8 and 150 mM arginine/HCl containing 15 mg/mL human serum albumin (HSA). HSA was used as a control and administered at a concentration of 15 mg/mL. Mice (10 per group) were randomized and treated with either:
i. PEG400 (once a day (QD) for 14 days) and pegylated Interferon-beta-1a (10 μg once a week (QW) for 3 weeks); ii. PD325901 (15 mg/kg once a day (QD) for 14 days) and pegylated Interferon-beta-1a (10 μg once a week (QW) for 3 weeks); iii. PEG400 (once a day (QD) for 14 days) and (HSA) (QW for 3 weeks); iv. […]
Tumors were measured every 3 days using calipers and volume was calculated for a prolate spheroid. […]

**Q.** With “pegylated IFN-beta-1a: Interferon beta-1a modified at the N-terminal α-amino group with a single, linear 20 kDa mPEG-O-2-methylpropionaldehyde group” as the substance, how does the “difference between estimates of least square means between treatment groups and vehicle control group” value read?
**A.** Its value is −4.77.

Reference: patent US20120082647A1, “INTERFERON-BETA FOR USE AS MONOTHERAPY OR IN COMBINATION WITH OTHER CANCER THERAPIES” (priority 2010, published 2012)
